Assay results from publication PMC7730638, “Liposomes Composed by Membrane Lipid Extracts from Macrophage Cell Line as a Delivery of the Trypanocidal N,N’-Squaramide 17 towards Trypanosoma cruzi” (Materials, 2020).

Columns and labels:
[1] = system: T. cruzi (strain CL-Brener) epimastigote; assay: Trypanocidal activity on epimastigotes (resazurin); assay type: cell-based, Trypanosoma cruzi; details: for Epimastigote SI: SI = CC50 (VERO cell)/IC50 epimastigote
Experimental: (§1) VERO (ATCC CCL81) and RAW 264.7 cells (ATCC TIB71) were maintained in RPMI-1640 supplemented with 10% fetal bovine serum (FBS) (Sigma Aldrich, St. Louis, MO, USA) without phenol red at 37 °C and 5% CO2 [14]. […] Trypomastigotes were obtained from monolayers of infected VERO cells grown at 37 °C in an atmosphere with 5% CO2 in RPMI-1640, pH 7.4, supplemented with 10% FBS and 100 μg/mL gentamicin. […] Then, 2.5 × 10^5 epimastigotes/mL were resuspended in 150 μL and added to the microplates. After 48 h, resazurin was added (20 μL/well of resazurin −3 mM), incubated for further 24 h, and fluorescence was recorded as described above. Nanostructures’ effect on amastigotes was accessed in VERO cell line grown in RPMI medium containing 10% FBS and seeded at a density of 1 × 10^4 cells/well in 24-well microplates. After 48 h, cells were infected with trypomastigotes at a ratio of 10:1 during 24 h, followed by removal of reminiscent extracellular parasites by washing with PBS. […] Cells were fixed and stained with Kit for Fast Staining in Haematology (Figure S2), and the number of amastigotes was determined by counting 200 cells for each experimental group distributed in random microscopic fields. The IC50 values were determined by nonlinear regression in GraphPad Prism version 7.0 (GraphPad Software, San Diego, CA, USA). Selectivity indices (SI) were calculated using the formula: SI = CC50 cytotoxicity in VERO cells/IC50 cytotoxicity in intracellular amastigotes.

[2] = system: T. cruzi intracellular amastigotes; assay: Trypanocidal activity on intracellular amastigotes in infected VERO cells (counting of stained cells); assay type: cell-based, Trypanosoma cruzi; details: SI = CC50 (VERO cell)/IC50 intracellular amastigotes
Experimental: as §1, with “microplates.” for “microplates. After 48 h, cells were infected with trypomastigotes at a ratio of 10:1 during 24 h, followed by removal of reminiscent extracellular parasites by washing with PBS.”

For `O=C(Cn1ccnc1[N+](=O)[O-])NCc1ccccc1` [BZ, benznidazole, reference compound], the “Epimastigote SI” value [1] was 17.99 and the “Amastigotes in VERO Cell SI” value [2] was 59.76.
`CCCCNc1c(N(C)CCCN(C)C)c(=O)c1=O` [S, N, N’-Squaramide 17] was tested, and the “Epimastigote SI” value [1] was 56.11, the “SI for epimastigotes relative to BZ” value ([1]; compared with BZ SI = 17.99) was 3 times and the “Amastigotes in VERO Cell SI” value [2] was 14.38.
